Laboratory results: PubChem BioAssay AID624099 (ICCB-Longwood, 2012)
This is one part, drawn at random, of about 21,000 deposited reagents. In the full data, 497 (2.4%) are marked active. 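Higher z means weaker E2 silencing; only reporter increases were scored, and knock-downs that hurt cell survival may mask genuine repressor factors.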

- Purpose: 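Host factors E2 relies on to silence an HPV18 LCR reporter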 (primary screen)
- Cell system: human C33A cervical carcinoma cells (HPV-negative) stably expressing BPV1 E2 and an HPV18 LCR luciferase reporter
- Reagents: siRNA pool against human genes, 40 nM
- Timing: 72 h
- Detection: 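HPV18 LCR reporter light per well, converted to plate-wise z-scores that exclude control wells, and averaged over triplicate plates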
- Scale: mean z-score and z-score: higher = stronger reporter signal, weaker E2 silencing
- Call rule: 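Mean z ≥ 2 together with z ≥ 2 in two or more of the three replicates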

gene,mean z-score,"z-score, replicate A","z-score, replicate B","z-score, replicate C",call
PLD5,-0.01,-0.22,-0.27,0.47,inactive
GLI1,-0.34,-0.45,-0.21,-0.36,inactive
PDZK1,0.84,0.52,0.99,1.02,inactive
FN1,0.65,0.61,0.7,0.65,inactive
LLPH,-1.17,-1.1,-1.21,-1.2,inactive
RASL10B,-0.1,-0.03,0.01,-0.27,inactive
ZNF841,0.32,0.36,0.35,0.24,inactive
GAS2,0,0.26,-0.25,0,inactive
ALOX5,-0.88,-0.9,-0.82,-0.92,inactive
SNRNP40,-0.63,-0.62,-0.5,-0.76,inactive
TMEM125,1.12,1.07,1.16,1.14,inactive
SF3B4,-2.44,-2.3,-2.49,-2.52,inactive
XRCC5,1.05,0.87,1.15,1.13,inactive
ARPC4,-0.19,-0.04,-0.4,-0.15,inactive
WDR88,1.35,1.72,1.07,1.25,inactive
CSRP1,-1.17,-1.22,-1.17,-1.12,inactive
PALM3,0.96,1.31,0.68,0.89,inactive
GFM2,0.51,0.68,0.28,0.55,inactive
LOC400953 (retired record),-1.29,-1.19,-1.33,-1.35,inactive
CCRL2,0.3,0.3,0.41,0.2,inactive

In a second layout: results already given
gene | mean z-score | z-score, replicate A | z-score, replicate B | z-score, replicate C | call
PDZK1 | 0.84 | 0.52 | 0.99 | 1.02 | inactive
FN1 | 0.65 | 0.61 | 0.7 | 0.65 | inactive
LLPH | -1.17 | -1.1 | -1.21 | -1.2 | inactive
RASL10B | -0.1 | -0.03 | 0.01 | -0.27 | inactive

Further entries follow.
gene,mean z-score,"z-score, replicate A","z-score, replicate B","z-score, replicate C",call
GCC2-AS1,-0.21,-0.06,-0.42,-0.15,inactive
CFAP73,0.72,0.91,1.11,0.15,inactive
IGF2-AS,-0.28,-0.16,-0.33,-0.33,inactive
NFXL1,-0.67,-0.65,-0.8,-0.55,inactive
CRCP,1.06,0.6,0.8,1.77,inactive
CDIPT,-1.24,-1.22,-1.14,-1.36,inactive
TYW5,0.55,0.65,0.63,0.38,inactive
KLC4,0.4,0.35,0.35,0.49,inactive
NFATC1,-1.05,-1.18,-0.91,-1.05,inactive
SH2D6,-0.39,-0.34,-0.29,-0.52,inactive
RSRP1,1.11,1.12,1.1,1.12,inactive
ZBTB16,-0.62,-0.61,-0.6,-0.64,inactive
SRD5A3,0.57,0.55,0.63,0.52,inactive
LYLDT1,-0.86,-0.57,-0.63,-1.37,inactive
KNOP1,0.41,0.24,0.56,0.44,inactive
COL8A2,0.42,0.36,0.6,0.31,inactive
LOC100129860 (retired record),0.77,0.84,0.89,0.58,inactive
P2RX6,0.85,0.94,0.58,1.04,inactive
LOC401367 (retired record),-0.9,-0.73,-0.93,-1.05,inactive
